According to paper PMC5082683 (2016):
Where “and” joins values, the source holds several entries; their conditions need not be identical. Identical values can stand only once.

How the values were obtained:
[1] = biological target: T1, recombinant ectodomain of Gc (rGc) from Hantaan virus strain 76-118 (Hantaan virus strain 76-118, N-linked glycan at Asn280)
[2] = biological target: T1, recombinant ectodomain of Gc (rGc) from …; remark: listed apart in the source

B1: scFv A5 (scFv, V domains shown)
VH: QVQLQESGPGLVKPSETLSLTCVVSGGSISSSNWWSWVRQPPGKGLEWIGEIYHSGSPNYNPSLKSRVTISVDKSKNQFSLKLSSVTAADTAVYYCARQMRQWGQGTLVTVSS
VL: SSELTQDPAVSVALGQTVRITCQGDSLRSYYASWYQQKPGQAPVLVIYGKNNRPSGIPDRFSGSSSGNTASLTITGAQAEDEADYYCNSRDSSGNHNVFGGGTKLTVL
With B1 the koff [1] was 0.123 s⁻¹ and 0.0194 s⁻¹ and the Kd [2] was 6.4 µM and 1.11 µM.
